Where two headings read alike, the source gives them in different places. Residues, ends and D or L forms follow the SMILES beside them.

The data set relates to zebrafish embryos / Candida.

Turning to `CC(C)C[C@H](NC(=O)[C@H](CS)NC(=O)[C@H](Cc1ccc(O)cc1)NC(=O)CNC(=O)[C@H](Cc1c[nH]cn1)NC(=O)[C@H](CCCNC(=N)N)NC(=O)[C@@H](NC(=O)[C@H](CS)NC(=O)[C@H](CO)NC(=O)[C@H](Cc1ccc(O)cc1)NC(=O)[C@H](Cc1c[nH]cn1)NC(=O)[C@@H](N)CCCCN)[C@@H](C)O)C(=O)N[C@@H](C)C(=O)N[C@@H](CS)C(=O)N[C@@H](Cc1ccc(O)cc1)C(=O)N[C@@H](CCCCN)C(=O)N[C@@H](CCCNC(=N)N)C(=O)N[C@@H](Cc1c[nH]c2ccccc12)C(=O)N[C@@H](Cc1ccccc1)C(=O)O` [nicotianin-I] (H-KHYSCTRHGYCLACYKRWF-OH), the therapeutic index by setting is: (zebrafish LC50 / MIC for C. albicans) 0.45; (zebrafish LC50 / MIC for C. parapsilosis) 0.38.

In turn, `C[C@@H]1[C@H](O)[C@@H](C)/C=C/C=C/CC/C=C/C=C/C=C/C=C/C(O[C@H]2O[C@H](C)[C@@H](O)[C@H](N)[C@@H]2O)CC2O[C@](O)(CC(O)C(O)CCC(O)CC(O)CC(O)CC(=O)O[C@H]1C)CC(O)C2C(=O)O` (stereo partly drawn) [nystatin] came in with a therapeutic index (from literature LC50 (zebrafish embryos) and MIC (C. albicans and C. parapsilosis)) of 6.2.

These data come from publication PMC12120630, “Nicotianin-I: A Tobacco Floral Nectar Peptide with Anticandidal Activity” (ACS Omega, 2025).
